{
  "sequences": {"note": "Amino acid sequences for entries named in this document (tags omitted). A change or cut given only in a name is not applied to a line headed by its entry.", "UniProt Q9NNX6": "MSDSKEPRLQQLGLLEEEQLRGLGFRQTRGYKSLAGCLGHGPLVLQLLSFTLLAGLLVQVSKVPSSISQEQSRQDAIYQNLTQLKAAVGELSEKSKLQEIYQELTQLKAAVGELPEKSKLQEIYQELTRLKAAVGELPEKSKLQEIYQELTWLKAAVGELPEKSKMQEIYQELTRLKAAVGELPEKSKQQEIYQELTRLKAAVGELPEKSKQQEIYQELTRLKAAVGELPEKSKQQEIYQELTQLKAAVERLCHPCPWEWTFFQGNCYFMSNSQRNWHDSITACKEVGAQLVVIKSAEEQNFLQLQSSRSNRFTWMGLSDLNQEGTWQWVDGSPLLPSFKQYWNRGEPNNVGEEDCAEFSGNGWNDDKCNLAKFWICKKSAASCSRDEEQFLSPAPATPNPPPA"},
  "source": "paper PMC3233575",
  "assay_in_all_cases": "SPR; gp140 (100 nM) captured on amine-coupled Mab 5F3; with or without DC-SIGN or Langerin (50 nM) injected first; then fluid phase CD4 (50-500 nM); HBS-P pH 7.4 with 10 mM CaCl2; two-step linked reaction model, apparent KD; t1/2 = ln 2/kd",
  "key": {"[1]": {"molecular_target": "Langerin:gp140 (BX08) complex, formed on the chip before CD4 was injected (HIV-1 strain 92FR_BX08 (clade B, R5) | not stated) (UniProt Q9UJ71)"}, "[2]": {"molecular_target": "HIV-1 BX08 gp140 (soluble, trimeric ectodomain of the envelope glycoprotein, residues 31-663) (HIV-1 strain 92FR_BX08 (clade B, R5))"}, "[3]": {"molecular_target": "DC-SIGN:gp140 (BX08) complex, formed on the chip before the ligand was injected (HIV-1 strain 92FR_BX08 (clade B, R5) | not stated) (UniProt Q9NNX6)"}},
  "data": [
    {"substance": "CHO-expressed soluble CD4 (from UniProt P01730 26-396) (receptor)", "values": [
      {"measurement": "t1/2 of the complex", "setting": "[1]", "result": 16, "unit": "min"},
      {"measurement": "Kd", "setting": "[2]", "result": 2.4, "unit": "nM"},
      {"measurement": "t1/2 of the complex", "setting": "[3]", "result": "> 190", "unit": "h"}
    ]}
  ]
}
